This test relates to Eng195 in MDCK culture. The settings on record: 80 μM compound, MOI 0.001 at bottleneck.

SMILES strings stand for the structures.

As to `Cc1c2ccccc2n2cc(-c3ccccc3)nc(C(C)C)c12` [DL7], the “output titres (passage 14) after bottleneck at passage eight” value is “recovered to a similar range as controls”.

In the case of `COc1ccccc1NC(=S)NC(=O)c1cc2ccccc2cc1OC` [L1.1], the “output titres (passage 14) after bottleneck at passage eight” value is reported as “significant reduction”.

These data come from article PMC7418971 (PLoS Pathogens, 2020).
